Pooled drug test results. Numbers come from NIAID ChemDB, via PubChem.

Shared fields: whole-cell or culture tests; agent: Candida parapsilosis; endpoint: MIC

a–b is a range or a potency band. Lines come from different laboratories, so protocols vary.

COc1ccc(-c2nnc(SCC(O)(Cn3cncn3)c3ccc(Cl)cc3Cl)n2N)cc1 ; strain: ATCC 22019 ; method: broth dilution ; value: >64 µg/mL
CC(C)c1ccc(NS(=O)(=O)c2ccc(CN(C)CC(O)(Cn3cncn3)c3ccc(F)cc3F)cc2)cc1 ; strain: CAPA1 ; method: resazurin ; value: 0.1 µg/mL
CC1CC(=O)N(CCCCc2ccccc2)C1=O ; strain: CCC 124-2000 ; method: broth dilution / turbidity ; value: 125 µg/mL
O=c1[nH][nH]c2c1C(c1ccccc1)CC(c1ccc3ccccc3c1)=C2 ; value: 50 µg/mL
O=C(CCn1ccnc1)c1cccc2ccccc12 ; strain: RTCC 1079 ; method: broth dilution ; value: 64 µg/mL
Cc1ccc(N2N=C(c3c[nH]c4ccccc34)CC2c2cc(Cl)cc(Cl)c2)cc1 ; strain: NRRL Y-12696 ; method: broth dilution ; value: 100 µg/mL
CN(Cc1ccc(S(=O)(=O)N2CCOCC2)cc1)CC(O)(Cn1cncn1)c1ccc(F)cc1F ; strain: CAPA2 ; method: resazurin ; value: 1.1 µg/mL
C[C@@H]1[C@H](O)[C@@H](C)/C=C/C=C/C=C/C=C/C=C/C=C/C=C/[C@H](O[C@@H]2O[C@H](C)[C@@H](O)[C@H](N)[C@@H]2O)C[C@@H]2O[C@](O)(C[C@@H](O)C[C@@H](O)[C@H](O)CC[C@@H](O)C[C@@H](O)CC(=O)O[C@H]1C)C[C@H](O)[C@H]2C(=O)O ; strain: ATCC 22019 ; value: 1.6–3.1 µM
CCOc1ccc2nc3cc(N=C4NC(=O)/C(=C\c5ccc([N+](=O)[O-])o5)S4)ccc3c(N)c2c1 ; method: broth dilution ; value: 10 µg/mL
O=C(CCn1ccnc1)c1ccc(-c2ccccc2)cc1 ; strain: RTCC 1079 ; method: broth dilution ; value: 64 µg/mL
O/N=C\c1ccc(F)cc1 ; value: 3600 µM
O=C(CCn1ccnc1)c1cccc(C(O)c2ccc(Cl)cc2)c1 ; strain: RTCC 1079 ; method: broth dilution ; value: 64 µg/mL
Cc1ccc(N2N=C(c3c[nH]c4ccccc34)CC2c2c(Cl)cccc2Cl)cc1 ; strain: NRRL Y-12696 ; method: broth dilution ; value: 200 µg/mL
Nn1c(SCC(O)(Cn2cncn2)c2ccc(Cl)cc2Cl)nnc1-c1cccc(Br)c1 ; strain: ATCC 22019 ; method: broth dilution ; value: >64 µg/mL
O/N=C/c1ccc(O)cc1 ; value: >7290 µM
CC1C(=O)N(Cc2ccccc2)C(=O)C1C ; strain: CCC 124-2000 ; method: broth dilution / turbidity ; value: 125 µg/mL
O=C1C(=O)c2ccccc2C2=C1CC(CI)O2 ; strain: Clinical isolate ; method: broth dilution ; value: 25.4 µg/mL
Cc1ccc(N2N=C(c3c[nH]c4ccccc34)CC2c2ccc(Cl)cc2Cl)cc1 ; strain: NRRL Y-12696 ; method: broth dilution ; value: 200 µg/mL
C[C@@H]1CC(=O)N(Cc2ccccc2)C1=O ; strain: CCC 124-2000 ; method: broth dilution / turbidity ; value: 62.5 µg/mL
Cc1ccc(-c2nnc(SCC(O)(Cn3cncn3)c3ccc(Cl)cc3Cl)n2N)cc1 ; strain: ATCC 22019 ; method: broth dilution ; value: >64 µg/mL
CCCc1ccc(NS(=O)(=O)c2ccc(CN(C)CC(O)(Cn3cncn3)c3ccc(F)cc3F)cc2)cc1 ; strain: CAPA2 ; method: resazurin ; value: 0.23 µg/mL
O=c1[nH][nH]c2c1C(c1ccc([N+](=O)[O-])cc1)CC(c1ccc3ccccc3c1)=C2 ; value: 25 µg/mL
C[C@H]1[C@H](O)[C@@H](C)/C=C/C=C/C=C/C=C/C=C/C=C/C=C/[C@H](O[C@@H]2O[C@H](C)[C@@H](O)[C@H](N)[C@@H]2O)C[C@@H]2O[C@](O)(C[C@@H](O)C[C@@H](O)CC[C@H](O)[C@@H](O)C[C@@H](O)CC(=O)O[C@H]1C)C[C@H](O)[C@H]2C(=O)O ; strain: NBRC 1396 ; method: broth dilution ; conditions: 48 h ; value: 1 µg/mL
CC(C)=CCC/C(C)=C/CN=C(N)NC/C=C(\C)CCC=C(C)C ; strain: ATCC 22019 ; value: 31.2 µg/mL
CC1CC(=O)N(c2ccc(F)cc2F)C1=O ; strain: CCC 124-2000 ; method: broth dilution / turbidity ; value: 250 µg/mL
C[C@@H]1[C@H](O)[C@@H](C)/C=C/C=C/C=C/C=C/C=C/C=C/C=C/[C@H](O[C@@H]2O[C@H](C)[C@@H](O)[C@H](N)[C@@H]2O)C[C@@H]2O[C@](O)(C[C@@H](O)C[C@@H](O)[C@H](O)CC[C@@H](O)C[C@@H](O)CC(=O)O[C@H]1C)C[C@H](O)[C@H]2C(=O)O ; strain: ATCC 22019 ; method: MTT ; value: 1.5 µg/mL
OC(CCn1ccnc1)c1cccc(C(O)c2ccc(Cl)c(Cl)c2)c1 ; strain: RTCC 1018 ; method: broth dilution ; value: >64 µg/mL
Cc1ccc(N2N=C(c3c[nH]c4ccccc34)CC2c2cccc(Cl)c2Cl)cc1 ; strain: NRRL Y-12696 ; method: broth dilution ; value: 200 µg/mL
CC(C)=CCC/C(C)=C/CN(C/C=C(\C)CCC=C(C)C)C(=N)N ; strain: ATCC 22019 ; value: 31.2 µg/mL
CCCNS(=O)(=O)c1ccc(CN(C)CC(O)(Cn2cncn2)c2ccc(F)cc2F)cc1 ; strain: CAPA1 ; method: resazurin ; value: 0.91 µg/mL
COC(=O)c1cc(O)c(O)c2oc3cc(OC)cc(O)c3c(=O)c12 ; strain: ATCC 22019 ; method: broth dilution ; value: 15.7 µg/mL
O/N=C\c1ccccc1Cl ; value: 1410 µM
O=c1[nH][nH]c2c1C(c1ccc(Cl)cc1)CC(c1ccc3ccccc3c1)=C2 ; value: 6.25 µg/mL
OC(CCn1ccnc1)c1cccc(C(O)c2ccc(Br)cc2)c1 ; strain: RTCC 1079 ; method: broth dilution ; value: >64 µg/mL
CCCCCCCCCCCCCCCC(=O)NC(CCCCN)C(=O)NC(CCCCN)C(N)=O ; strain: ATCC 4873 ; method: broth dilution ; value: 2 µg/mL
CC(C)S(=O)(=O)Nc1ccc(CN(C)CC(O)(Cn2cncn2)c2ccc(F)cc2F)cc1 ; strain: CAPA2 ; method: resazurin ; value: 3.1 µg/mL
COc1nc2ccc(Br)cc2cc1[C@@H](c1ccccc1)[C@@](O)(CCN(C)C)c1cccc2ccccc12 ; strain: ATCC 22019 ; method: MTT ; value: 6.25 µM
O=C(CCn1ccnc1)c1cccc(O)c1 ; strain: RTCC 1079 ; method: broth dilution ; value: >64 µg/mL
Cc1ccc(N2N=C(c3c[nH]c4ccccc34)CC2c2cc(Cl)ccc2Cl)cc1 ; strain: NRRL Y-12696 ; method: broth dilution ; value: 100 µg/mL
CC(C)(O)c1cn(-c2ccc(Cl)cc2)nn1 ; strain: URM 4818 ; method: broth dilution ; value: 128 µg/mL
O=C(NCCCCCCNC(=O)NNC(=O)c1ccccc1)NNC(=O)c1ccccc1 ; value: 7.5 µg/mL
O/N=C\c1cccs1 ; value: 3930 µM
CCC(C)CC(C)CCCCCCCCC(=O)N[C@H]1C[C@@H](O)[C@H](NCCN)NC(=O)[C@@H]2[C@@H](O)CCN2C(=O)[C@H]([C@H](O)CCN)NC(=O)[C@H]([C@H](O)[C@@H](O)c2ccc(O)cc2)NC(=O)[C@@H]2C[C@@H](O)CN2C(=O)[C@H]([C@@H](C)O)NC1=O ; strain: ATCC 22019 ; method: broth dilution ; value: 0.5 µg/mL
CC(=O)NNC(=O)NCCCCCCNC(=O)NNC(C)=O ; value: 7.5 µg/mL
O/N=C\c1ccccc1 ; value: 2060 µM
O=C(CCn1ccnc1)c1cccc(C(O)c2ccc(Br)cc2)c1 ; strain: RTCC 1018 ; method: broth dilution ; value: 64 µg/mL
Cn1cccc1-c1n[nH]c(=O)n1CCCCCCn1c(-c2cccn2C)n[nH]c1=O ; value: 7.5 µg/mL